Where two headings read alike, the source gives them in different places.
System: IPEC-1 cells
[1] = ratio 3, highest concentration(s): DON 50 µM + EMO 5 µM / ENN-B 17.2 µM / BEA 2.3 µM / ENN-A1 6.5 µM, ENN-B1 6 and 18 µM

Row | Substance | Toxicity of the combination of DON and the emerging mycotoxin [1] | Toxicity of the combination of DON and the emerging mycotoxin (ratio 2, highest concentration: DON 50 µM + ENN-B1 4.1 µM / ENN-B 3.6 µM / ENN-A1 1.7 µM)
1 | Beauvericin | higher than that of BEA alone, but lower than that of DON alone | –
2 | Enniatin A1 | higher than the toxicity of ENN-A1 alone, but lower than the toxicity of DON alone | higher than the toxicity of ENN-A1 alone, but still lower than the toxicity of DON alone
